Test results from publication PMC9247205.
Construct, isoform or probe ends are uncertain for at least one entry. For some of these results: At least one verdict rests on a figure or table, not on a statement of the authors.

Chains of the proteins cited; added tags and fusions are not shown. Lines headed by an entry give the natural chain unless they say otherwise; changes in a name come on top.
UniProt C4M4V3: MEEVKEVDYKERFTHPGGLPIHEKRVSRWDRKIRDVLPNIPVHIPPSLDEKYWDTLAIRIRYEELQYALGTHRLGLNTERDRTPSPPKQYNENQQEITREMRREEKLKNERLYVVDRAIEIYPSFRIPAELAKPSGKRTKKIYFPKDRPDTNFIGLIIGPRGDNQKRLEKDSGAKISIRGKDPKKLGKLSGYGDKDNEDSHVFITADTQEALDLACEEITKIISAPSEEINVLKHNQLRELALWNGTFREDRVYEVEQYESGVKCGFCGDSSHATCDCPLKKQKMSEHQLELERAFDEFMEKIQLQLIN
UniProt C4LXB3: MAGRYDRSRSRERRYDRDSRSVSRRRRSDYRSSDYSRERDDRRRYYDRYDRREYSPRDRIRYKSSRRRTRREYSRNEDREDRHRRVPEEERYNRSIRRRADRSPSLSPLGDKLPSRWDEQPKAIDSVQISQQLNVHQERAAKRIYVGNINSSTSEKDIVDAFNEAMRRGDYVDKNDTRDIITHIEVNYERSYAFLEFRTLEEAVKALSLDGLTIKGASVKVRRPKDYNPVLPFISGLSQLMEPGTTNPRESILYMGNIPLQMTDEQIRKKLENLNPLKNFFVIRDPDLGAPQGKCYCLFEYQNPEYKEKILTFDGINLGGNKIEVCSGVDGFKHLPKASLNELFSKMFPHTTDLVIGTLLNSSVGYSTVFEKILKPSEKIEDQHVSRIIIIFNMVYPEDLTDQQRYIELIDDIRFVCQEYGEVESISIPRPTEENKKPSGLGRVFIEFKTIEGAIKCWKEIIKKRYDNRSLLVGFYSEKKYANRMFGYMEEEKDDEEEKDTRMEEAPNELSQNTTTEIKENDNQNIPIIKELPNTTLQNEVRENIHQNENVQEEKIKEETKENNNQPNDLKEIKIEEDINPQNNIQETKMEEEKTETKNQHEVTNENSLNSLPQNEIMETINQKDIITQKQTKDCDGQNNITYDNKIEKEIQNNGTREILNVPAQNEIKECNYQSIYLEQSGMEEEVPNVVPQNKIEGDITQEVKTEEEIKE

Legend:
[1] = target: GST-SF1KQ (EhSF1 KH-QUA2 domain) (Entamoeba histolytica) (UniProt C4M4V3); assay: EMSA; details: EMSA: 50 ug protein (Fig 4), 200 fmol probe, 20 min (+10 min with U2 snRNA); binding buffer as in Ortuno-Pineda 2012, not given; recombinant protein; protein details: N-terminal GST (pGex 6p1); label: 5'-32P
[2] = system: GST-SF1KQ (EhSF1 KH-QUA2 domain) + His-84KQ (EhU2AF2 KH-QUA2 domain); assay: EMSA; details: 1x U2 snRNA, 84KQ inhibits displacement of SF1KQ; EMSA: 50 ug protein (Fig 4), 200 fmol probe, 20 min (+10 min with U2 snRNA); binding buffer as in Ortuno-Pineda 2012, not given; recombinant protein; protein details: N-terminal GST (pGex 6p1),His6 (pET28a); label: 5'-32P
[3] = target: His-84KQ (EhU2AF2 KH-QUA2 domain) (Entamoeba histolytica) (UniProt C4LXB3); assay: UV crosslinking; details: pH 4, better than Entamoeba BS; recombinant protein; protein details: His6 (pET28a); label: 5'-32P
[4] = target: GST-SF1KQ (EhSF1 KH-QUA2 domain) (Entamoeba histolytica) (UniProt C4M4V3); assay: UV crosslinking; details: recombinant protein; protein details: N-terminal GST (pGex 6p1); label: 5'-32P
[5] = system: GST-SF1KQ (EhSF1 KH-QUA2 domain) + His-84KQ (EhU2AF2 KH-QUA2 domain); assay: EMSA (supershift); details: EMSA: 50 ug protein (Fig 4), 200 fmol probe, 20 min (+10 min with U2 snRNA); binding buffer as in Ortuno-Pineda 2012, not given; recombinant protein; protein details: N-terminal GST (pGex 6p1),His6 (pET28a); label: 5'-32P

Measured: binding result

UAUACUAACAA [yeast canonical BS probe (C+)]
binds: [1] | [2] | [3]

AACUUUUAUUU [E. histolytica RabX13 intron BS probe (P+)]
not listed: [3]
binds: all other assays above
